One data set relates to Raw 264.7 cells. The experiment in a line: Confocal fluorescence microscopy of intracellular distribution of gentamicin and photosensitizer. The data set is classed as cell-based, mouse. To be noted: for intracellular distribution: 10 μg/ml fluorescently labelled gentamicin + 1 μg/ml TPCS2a overnight.
For data set [1], the system named is RAW 264.7 macrophage cell line. The experiment in a line: Fluorescence microscopy of intracellular localization of vancomycin and TPCS2a. Type of data set: cell-based, mouse. To be noted: 1 μg/ml TPCS2a and 50 μg/mL BODIPY FL-Vancomycin for 18 h.
Setting [2] is: after illumination of 2 minutes.

On to gentamicin, for which, in the data set with Raw 264.7 cells (setting [2]), the “site of accumulation after release” value is “seemed to accumulate at the nuclei”. In addition, the intracellular distribution entry in the data set on Raw 264.7 cells (setting [2]) is reported as “released into the cytosol”; in the data set with Raw 264.7 cells (without illumination), “localized within cellular compartments in the periphery of the cells”.

In the case of “tetraphenyl chlorin disulphonate [TPCS2a]”, the figures for the intracellular distribution result in the data set on Raw 264.7 cells (setting [2]) and in the data set with Raw 264.7 cells (without illumination) were “released into the cytosol” and “localized within cellular compartments in the periphery of the cells”, respectively. Moreover, the intracellular localization result is on record as “released from the endocytic vesicles” in data set [1] (after illumination for 120 s) and “localized in small spots inside the cells, corresponding to endocytic vesicles” in data set [1] (before illumination).

The values above are taken from US11648287B2, “Composition for the treatment of intracellular bacterial infection” (priority 2017, dated 2023).
